# Results of single-concentration screens

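Whole-cell growth test on Mycobacterium tuberculosis, read after 4 days in a medium based on cholesterol and the lipid DPPC; the read-out is not stated. Tested at 50 µM. Direction is inferred from retests: higher values go with more growth inhibition. Size under these conditions: about 69,000 compounds, about 370 of them at 50% or above in at least one test.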

The filed quantity is “Percent Effect” (%). The record does not define 0% and 100%; most values in the screen are far below 50% and negative numbers occur (in some assays of this library far below -100). The entries come from a sample that favours strong results. Two or more numbers in one place are separate tests of the same structure; such repeats can differ widely.

For CC(=O)N1CCN(c2ccccc2CNc2cncc(C)c2)CC1 the result was -2.141%. With OCc1cc2ccccc2nc1N1CCCCC1 the screen gave -33.12%. For COCc1nc2cc(NCc3ccncc3)ccc2o1 the result was -3.5% & 11.79%. Result for CSc1ccc(C(=O)N2CCCC(Nc3ccc(F)cc3)C2)cc1 (stereo not drawn) was 25.61% & 2.651%. Cc1oc(-c2ccc(Cl)cc2)nc1C(=O)NC1=NCCS1 read 17.42%. Result for Cc1ccc(S(=O)(=O)NCC(O)c2ccoc2)s1 (stereo not drawn) was -7.287%.

With Cc1cc(CN(C)CC2(O)CCCN(CCC3CCCCC3)C2=O)no1 (stereo not drawn) the screen gave 69.28%. Result for CN(Cc1cnn(C)c1)C(=O)c1cc2ccccc2c(=O)[nH]1 was -24.12%. Result for CN(C)c1cc(CNC(=O)Nc2ccc(C#N)cc2)ccn1 was -0.5137%. With O=C(NCCN1CCCCC1)c1nc2ccccc2c(=O)[nH]1 the screen gave -20.71%. Result for O=C(Cc1cccs1)Nc1cnn(C2CCOC2)c1 (stereo not drawn) was 71.81%. CN(C)CCN1C(=O)CCC12CCN(C(=O)c1cccnc1)CC2.O=C(O)C(F)(F)F.O=C(O)C(F)(F)F gave 6.394%.

CCCS(=O)(=O)N(C)C(=O)CCc1ccccc1 gave 7.921% & 9.202%. Cn1nnc(NCc2ccc(OCc3ccc(Cl)cc3)cc2)n1 read 10.47%. With Cc1csc(N2CCN(C(=O)c3cc(Cl)c[nH]3)CC2)n1 the screen gave 10.73% & 8.478%. With CC(Cn1cccn1)NC(=O)c1cccs1 (stereo not drawn) the screen gave -17.56%. For CCCc1nc(C(=O)N2CCN(C(=O)OC)CC2)cs1 the result was -1.574%. Result for CSc1nccc(N2CCC3(CCCN(Cc4ccc(F)cc4)C3)C2)n1 (stereo not drawn) was 62.9%.

CCOc1cc(C)c(-c2cc(N)[nH]n2)cc1OCC gave -2.061%. CN(Cc1cccc(Cl)c1)S(=O)(=O)N1CCOCC1 read -5.901%. Result for COc1cc(C)sc1C(=O)NCCNc1ccccc1 was 50.84%. For CNS(=O)(=O)CCCn1nnc(-c2ccc(F)c(C)c2)n1 the result was 37.34% & 4.073%. With CC(Cn1cccn1)NCc1nc(-c2cccc(Cl)c2)no1 (stereo not drawn) the screen gave 22.16%. Result for COc1cc(CN2CCC(COCc3ccccc3)CC2)cc(OC)c1 was 10.02%.

For COc1cccc(Nc2nc(N3CCCC3)nc3c2CNCC3)c1.Cl the result was 30.77%. Cc1cnn(C2CN(c3ccccc3S(=O)(=O)C(F)(F)F)C2)c1 read 50.4%. O=C(Cn1cc(I)cn1)N1CCCCCC1 gave 19.53%. With COc1cc(-c2ccc(F)c3c2OC(CN)C3)cc(OC)c1OC (stereo not drawn) the screen gave 31.81% & 7.855%. For O=C(c1cc(Br)c[nH]1)N1CCN(Cc2ccco2)CC1 the result was 15.25%.

The last 2 entries again:

Result for COc1cc(-c2ccc(F)c3c2OC(CN)C3)cc(OC)c1OC (stereo not drawn) was 31.81% & 7.855%.
Result for O=C(c1cc(Br)c[nH]1)N1CCN(Cc2ccco2)CC1 was 15.25%.

From ChEMBL document CHEMBL3988442, “University of Dundee, Small-Polar-MMV Screening Library” (2021).